Measured values from several laboratories, pooled; numbers as filed in NIAID ChemDB.

Shared fields: tests in culture; agent: Mycobacterium tuberculosis

Conditions beyond the fields shown may differ between rows.

smiles,read-out,dose,strain or isolate,mutations,read by,setting,cells,result
C[CH2][Sn]([Cl])([Cl])[CH2]C.c1cnc2c(c1)ccc1cccnc12,MIC,,H37Rv,,BACTEC,,,6.25 µg/mL
COc1ccccc1NC(=O)OCC[NH+]1CCCC1,MIC,,My 331/88,,,,,>1000 µM
CNC(=O)c1n[nH]c(C)c1[N+](=O)[O-],MIC bound,,H37Rv,,BACTEC,,,>12.5 µg/mL
COC(=O)C1=C(C)NC(Nc2cccc(C#N)c2)=NC1c1ccc(Cl)cc1,MIC,,H37Rv,,agar,,,8 µg/mL
CCCC(=O)Oc1ccc2c(c1)[nH]c1c(C)nccc12,EC50,,H37Rv,,,,,>6.25 µg/mL
CC(C)N=c1cc2n(-c3ccc(Cl)cc3)c3ccccc3nc-2cc1Nc1ccc(Cl)cc1,MIC,,H37Rv,,resazurin / fluorescence,,,0.5 µg/mL
CCCCCCCCCOc1cccc(NC(=O)OCC[NH+]2CCCC2)c1,MIC,,My 331/88,,,,,32 µM
CCOC(=O)C(=O)N(CC(=O)OC)C(=O)Cc1ccccc1,MIC bound,,H37Rv,,BACTEC,,,>12.5 µg/mL
CC(C)/C=C/C[C@@H](C)[C@H]1CC[C@@]2(C)C3CCC4C(C)(C)[C@@H](O)CCC45CC35CC[C@]12C,MIC,,,,,,,8 µg/mL
CC[C@H]1OC(=O)[C@H](C)[C@@H](O[C@H]2C[C@@](C)(OC)[C@@H](O)[C@H](C)O2)[C@H](C)[C@@H](O[C@@H]2O[C@H](C)C[C@H](N(C)C)[C@H]2O)[C@](C)(O)C[C@@H](C)CN(C)[C@H](C)[C@@H](O)[C@]1(C)O,MIC,,71 isolates,,,,,3.6–57.6 µg/mL
O=C(NCCc1ccc(Cl)cc1)C1(c2cccs2)CCOCC1,MIC99,,CDC1551,,turbidity,,,19.3 µM
C/C(=N\OCc1nnc(-c2ccc(N)cc2)o1)c1ccccc1,inhibition,12.5 µg/mL,,,,,,7–56%
NC(=O)c1cnccn1,inhibition,25 µg/mL,592 strains,,agar,,,85%
c1ccc(C(=NOCCc2nnc(N3CCCCC3)o2)c2ccccc2)cc1,inhibition,12.5 µg/mL,,,,,,7–56%
CC(CN1CC(=O)NC(=O)C1)N1CC(=O)NC(=O)C1.[Cl][Pt][Cl],inhibition,12.5 µg/mL,H37Rv,,BACTEC,,,-10%
CCCCCCCOc1ccc(NC(=O)OCC[NH+]2CCCC2)cc1,MIC,,My 331/88,,,,,32 µM
Cc1nn(C(=O)c2ccncc2)c(C)c1N=Nc1ccc(S(=O)(=O)Nc2ccccn2)cc1,MIC bound,,H37Rv,,BACTEC,,,>12.5 µg/mL
O=C(N/N=C/c1cn(-c2cccc(Cl)c2)nn1)c1ccncc1,MIC,,H37Rv,,resazurin,,,0.62 µg/mL
CCCCCOc1ccccc1NC(=O)OCC[NH+]1CCCC1,MIC,,My 331/88,,,,,125 µM
c1ccc(CNc2nnc(CCON=C(c3ccccc3)c3ccccc3)o2)cc1,inhibition,12.5 µg/mL,,,,,,7–56%
COc1ccc(-n2c(=O)oc3ccc(F)cc3c2=O)cc1,MIC,,CNCTC MY331/88,,,,,31 µM
COC(=O)C1=C(C)NC(Nc2ccc(F)c(Br)c2)=NC1c1ccc(Cl)cc1,MIC,,MDR-TB,,agar,,,32 µg/mL
CCCN1C[C@H](C)O[C@@H](O[C@H]2[C@H](C)[C@@H](O[C@@H]3O[C@H](C)CC(=O)[C@H]3O)[C@@H](C)C[C@](C)(OC(=O)N3C[C@@H](C)O[C@@H](C)C3)C(=O)[C@H](C)[C@H](OC(=O)CC(C)C)[C@@H](C)[C@@H]([C@@H](C)CO[C@@H]3O[C@H](C)[C@@H](O)[C@@H](OC)[C@H]3OC)OC(=O)[C@@H]2C)C[C@H]1C,MIC,,H37Rv,,resazurin,,,1.14 µM
CCCCCCCCCOc1ccc(NC(=O)OCC[NH+]2CCCC2)cc1,MIC,,My 331/88,,,,,16 µM
Nc1ccc(-c2nnc(CON=C(c3ccccc3)c3ccccc3)o2)cc1,inhibition,12.5 µg/mL,,,,,,7–56%
Cc1cc(S(=O)(=O)O)c(NC(=O)c2oc3cc(O)ccc3c(=O)c2C)cc1Cl,inhibition,12.5 µg/mL,H37Rv,,BACTEC,,,0%
Cc1nccc2c1[nH]c1cc(OC(=O)C(C)C)ccc12,inhibition,6.25 µg/mL,H37Rv,,,,,36%
CCN1C[C@H](C)O[C@@H](O[C@H]2[C@H](C)[C@@H](O[C@@H]3O[C@H](C)CC(=O)[C@H]3O)[C@@H](C)C[C@](C)(OC(=O)N3C[C@@H](C)O[C@@H](C)C3)C(=O)[C@H](C)[C@H](OC(=O)CC(C)C)[C@@H](C)[C@@H]([C@@H](C)CO[C@@H]3O[C@H](C)[C@@H](O)[C@@H](OC)[C@H]3OC)OC(=O)[C@@H]2C)C[C@H]1C,MIC,,H37Rv,,resazurin,,,1.12 µM
COC(=O)C1=C(C)NC(Nc2cccc(Br)c2)=NC1c1ccc(Cl)cc1,MIC,,MDR-TB,,agar,,,16 µg/mL
Cc1ccc(S(=O)(=O)n2cnc(CC(NC(=O)C3CCC(=O)N3C(=O)OCc3ccccc3)C(=O)N3CCCC3C(=O)NN)c2)cc1,inhibition,12.5 µg/mL,H37Rv,,BACTEC,,,0%
C/C(=N\OCc1nnc(-c2ccccc2)o1)c1ccccc1,inhibition,12.5 µg/mL,,,,,,7–56%
CCCCCCCCC(OC)C(=O)O,MIC,,H37Rv,,,,,200 µM
COC(=O)C1=C(C)NC(Nc2cccc(SC(F)(F)F)c2)=NC1c1ccc(Cl)cc1,MIC,,XDR-TB,,agar,,,>64 µg/mL
CCCCNc1nc(N)nc(Nc2ccc(Br)cc2)c1N=O,inhibition,12.5 µg/mL,H37Rv,,BACTEC,,,60%
O=C(Nc1ccccc1F)C1(c2cccs2)CCOCC1,EC50,,CDC1551,,turbidity,,,200 µM
O=C(O)c1cccc2ccc3c(c12)Nc1ccccc1S3,inhibition,12.5 µg/mL,H37Rv,,BACTEC,,,57%
COc1ccc2cc(CN(C(=O)Nc3ccccc3Cl)C3CCCCC3)c(=O)[nH]c2c1,MIC,,H37Rv (ATCC 27294),,broth dilution,,,>64 µg/mL
O=[N+]([O-])c1ccc2nc(/C=C/c3cccc(O)c3)[nH]c2c1,MIC,,H37Rv (ATCC 27294),,resazurin,,,>7.25 µg/mL
CCCCCCCCCCOc1cccc(NC(=O)OCC[NH+]2CCCC2)c1,MIC,,My 331/88,,,,,32 µM
O=C1OC(c2ccccc2)CC1Nc1ccccc1,inhibition,12.5 µg/mL,H37Rv,,BACTEC,,,-5%
C/C(=N\OCc1nnc(N2CCCCC2)o1)c1ccccc1,inhibition,12.5 µg/mL,,,,,,7–56%
Cc1ccc(NC(=O)C2(c3cccs3)CCOCC2)cc1F,EC50,,CDC1551,,turbidity,,,64 µM
Nc1ccc(C(=O)O)c(O)c1,inhibition,2 µg/mL,592 strains,,agar,,,89%
Cn1cncc1C(=O)c1nccc2c1[nH]c1ccccc12,MIC,,H37Rv,,,,,14.1 µg/mL
CC(=O)Nc1ccc(/C=C(\NC(=O)c2ccccc2)c2nc3ccc4c(c3[nH]2)C(=O)c2ccccc2C4=O)cc1,inhibition,6.25 µg/mL,H37Rv,,resazurin,,,52%
CCOC(=O)c1ccc(-n2c(=O)oc3cc(Cl)ccc3c2=O)cc1,MIC,,CNCTC MY331/88,,,,,8 µM
CN[C@@H]1[C@H](O[C@H]2[C@H](O[C@H]3[C@H](O)[C@@H](O)[C@H](N=C(N)N)[C@@H](O)[C@@H]3N=C(N)N)O[C@@H](C)[C@]2(O)C=O)O[C@@H](CO)[C@H](O)[C@H]1O,MIC,,9449/2007,Streptomycin isoniazid rifampicin resistant,broth dilution / visual reading,,,>32 µM
CC(C)c1ccc(NC(=O)C2(c3cccs3)CCOCC2)cc1,MIC99,,CDC1551,,turbidity,,,290 µM
COc1ccc(-c2ccc(OCC(=O)OC(C)(C)C)cc2CN2CCN(c3ccccn3)CC2)cc1,MIC,,H37Rv (ATCC 27294),,broth dilution,,,16 µg/mL
Cc1ccc(S(=O)(=O)Oc2ccc3oc4cccc(NCCN(C)C)c4c(=O)c3c2)cc1,inhibition,12.5 µg/mL,H37Rv,,BACTEC,,,57%
COc1ccc2c(=O)n(-c3ccc(C(F)(F)F)cc3)c(=O)oc2c1,MIC,,CNCTC MY331/88,,,,,32 µM
CCCCCCCC(=O)Oc1ccc2c(c1)[nH]c1c(C)nccc12,inhibition,6.25 µg/mL,H37Rv,,,,,24%
CN(C)CC1CN(/N=C/C=C/c2ccc([N+](=O)[O-])o2)C(=O)O1,MIC,,H37Rv,,BACTEC,,,≥12.5 µg/mL
CC1COc2c(N3CCN(C)CC3)c(F)cc3c(=O)c(C(=O)O)cn1c23,MIC,,H37Rv,,,,,0.5–1 µg/mL
CC(NC(=O)c1ccccc1Cl)c1nnc(SCc2ccc(F)cc2)n1Cc1cccnc1,MIC,,H37Rv (ATCC 27294),,broth dilution,7 d,,>64 µg/mL
CC1(C)OC2C3COc4nc5c(N)ncnc5n4C(O3)C2O1,MIC bound,,H37Rv,,resazurin,,,>6.25 µg/mL
Brc1ccc2nc(/C=C/c3ccccc3)[nH]c2c1,MIC,,H37Rv (ATCC 27294),,resazurin,,,>7.25 µg/mL
OC(c1ccc(OCc2ccccc2)cc1)C1CC1,MIC,,H37Ra,,,,,>25 µg/mL
CC1COc2c(N3CCN(C)CC3)c(F)cc3c(=O)c(C(=O)O)cn1c23,MIC,,H37Rv,,,,,0.78 µg/mL
O=[N+]([O-])c1ccc2nc(/C=C/c3ccccc3)[nH]c2c1,MIC,,H37Rv (ATCC 27294),,resazurin,,,>7.25 µg/mL
Cc1ccc(-c2nnc(CCON=C(c3ccccc3)c3ccccc3)o2)cc1,inhibition,12.5 µg/mL,,,,,,7–56%
CCCCCCCCCCCO[C@H]1CCC23CC24CC[C@]2(C)[C@@H]([C@H](C)C/C=C/C(C)(C)O)CC[C@@]2(C)C4CCC3C1(C)C,MIC,,,,,,,>128 µg/mL
CCCCOc1ccc(NC(=O)OCC[NH+]2CCCC2)cc1,MIC,,My 331/88,,,,,250 µM
COC(=O)c1cc2c(n1S(=O)(=O)c1ccc(C)cc1)C(=O)C(=O)c1[nH]cc(C(=O)OCc3ccccc3)c1-2,MIC bound,,H37Rv,,resazurin,,,>6.25 µg/mL
Cc1ccc2c(=O)n(-c3cccc(F)c3)c(=O)oc2c1,MIC,,CNCTC MY331/88,,,,,8 µM
CCCCCc1nnc2n1N=C(c1ccc(Cl)cc1)CS2,inhibition,12.5 µg/mL,H37Rv,,BACTEC,,,86%
C=[N+]([O-])c1ccc(NC(=O)C2(c3cccs3)CCOCC2)cc1,EC50,,CDC1551,,turbidity,,,32 µM
CC(c1nnc(SCCOc2ccc(F)cc2)n1Cc1ccc(F)cc1)N(C)C(=O)c1ccccc1C(F)(F)F,MIC,,H37Rv (ATCC 27294),,broth dilution,14 d,,>64 µg/mL
CN1C(=O)N(C)C(=O)C(Nc2ccc([N+](=O)[O-])cc2)(SCCO)C1=O,MIC bound,,H37Rv,,BACTEC,,,>12.5 µg/mL
CCCCCCCCCCOC[n+]1cccc(NCNc2ccc[n+](COCCCCCCCCCC)c2)c1,MIC,,H37Rv,,,,,<6.25 µg/mL
N[C@@H]1CONC1=O,EC50,,592 strains,,agar,,,<30 µg/mL
CC(N=c1cc2n(-c3ccc(Cl)cc3)c3ccccc3nc-2cc1Nc1ccc(Cl)cc1)c1ccccc1,MIC,,H37Rv,,,,VERO,0.2 µg/mL
Cc1nccc2c1[nH]c1cc(OS(C)(=O)=O)ccc12,inhibition,6.25 µg/mL,H37Rv,,,,,24%
CCc1cc(C(N)=S)ccn1,EC50,,592 strains,,agar,,,<5 µg/mL
CCCCCCCCCCC[C@@H]1CCC[C@@H](C)N1,MIC,,RMP-R,,,,,6.4 µg/mL
CCCCCCC(=O)Oc1ccc2c(c1)[nH]c1c(C)nccc12,EC50,,H37Rv,,,,,>6.25 µg/mL
COc1ccc(NC(=O)OCC[NH+]2CCCC2)cc1,MIC,,My 331/88,,,,,>1000 µM
COc1ccc(-c2nnc(CO/N=C(\C)c3ccccc3)o2)cc1,inhibition,12.5 µg/mL,,,,,,7–56%
O=C1OC2CCCCC1CC2,MIC,,H37Rv,,BACTEC,,,≥12.5 µg/mL
COC(=O)C1=C(C)NC(Nc2cc(O)cc(Cl)c2)=NC1c1ccc(Cl)cc1,MIC,,XDR-TB,,agar,,,>64 µg/mL
COc1ccc2cc(CN(C(=O)Nc3ccc(Cl)cc3)C3CCCCC3)c(=O)[nH]c2c1,MIC,,H37Rv (ATCC 27294),,broth dilution,,,>64 µg/mL

Repeating the final 8 entries:

smiles	read-out	dose	strain or isolate	mutations	read by	setting	cells	result
CCc1cc(C(N)=S)ccn1	EC50		592 strains		agar			<5 µg/mL
CCCCCCCCCCC[C@@H]1CCC[C@@H](C)N1	MIC		RMP-R					6.4 µg/mL
CCCCCCC(=O)Oc1ccc2c(c1)[nH]c1c(C)nccc12	EC50		H37Rv					>6.25 µg/mL
COc1ccc(NC(=O)OCC[NH+]2CCCC2)cc1	MIC		My 331/88					>1000 µM
COc1ccc(-c2nnc(CO/N=C(\C)c3ccccc3)o2)cc1	inhibition	12.5 µg/mL						7–56%
O=C1OC2CCCCC1CC2	MIC		H37Rv		BACTEC			≥12.5 µg/mL
COC(=O)C1=C(C)NC(Nc2cc(O)cc(Cl)c2)=NC1c1ccc(Cl)cc1	MIC		XDR-TB		agar			>64 µg/mL
COc1ccc2cc(CN(C(=O)Nc3ccc(Cl)cc3)C3CCCCC3)c(=O)[nH]c2c1	MIC		H37Rv (ATCC 27294)		broth dilution			>64 µg/mL

Blank or dashed fields: not listed here. ECn: concentration that inhibits the pathogen or its effect by n%. Inhibition is in % at the dose shown (toxicity tests: loss of growth or viability). Two numbers with a dash give a range or band. MIC bound: limit read from a one-dose screen. A number after MIC or MFC names an inhibition level or a share of isolates.